{"source": "the supplement of paper PMC12637763", "binders": {"B1": {"name": "HIV-1 Env, rebound clone, placebo arm (protein)", "chain": "MKVKGTRMNWQHLWRWGTLMLGLVIICNASNTNLWVTVYYGVPAWEDADTTLFCASDAKAYSTEKHNVWATHACVPTDPNPQEISLPNVTENFDMWKNNMVEQMHEDIISLWDESLKPCVKLTPLCVTLTCSDINITNSSNTTTTNGNNSMVDPEEIKNCTFNMTTEIIDKKKEEYALFYKLDIVQINNGNGNDSKDYRLINCNVSTIKQACPKVSFEPIPIHYCAPAGFAILKCKDKNFNGTGPCKNVSTVQCTHGIKPVVSTQLLLNGSLAEEDIVIRTKNITDNGNNIIVHLNESITINCTRPNNNTRKSIHLGQGQAFYATGAIIGDIRQAHCNVSGSQWINMIKRVAGKLKGVFSKNVTFNSSAGGDLEITTHSFNCGGEFFYCNTSNLFNSSILTSNNTNENITLPCKIRQIVRMWQTVGQAMYAPPIAGSIICTSNITGLILTRDGGSNETNGTDTFRPGGGNMKDNWRSELYKYKVVKIKPLGIAPTKARRRVVGREKRAIGVLGAALLGFLGTAGSTMGAASITLTVQVRQLLSGIVQQQSNLLRAIEAQQHLLQLTVWGIKQLQARVLAVERYLRDQQLLGIWGCSGKLICTTNVPWNASWSNKSYEEIWDNMTWIQWDREIDNYTQLIYSLIEESQNQQEKNEQDLLALDKWTSLWSWFDISNWLWYIRIFIIIVGGLIGLRIVFAVLSIVNRVRQGYSPLSLQTLLPHPPEADRPGEIEEGGGEQGRTRSIRLVNGFLALAWDDLRNLCLFLYHHLRDFILTAARTVETLGHRGWEILKYLGNLLCYWGQELKNSVINLLDTTAIAVGNWTDRFIELGQRVVRAVLHIPRRTRQGLERALL"}, "B2": {"name": "HIV-1 Env, rebound clone, placebo arm (protein)", "chain": "MKVKGTRMNWQHLWRWGTLMLGLVIICNASNTNLWVTVYYGVPAWEDADTTLFCASDAKAYSTEKHNVWATHACVPTDPNPQEISLPNVTENFDMWKNNMVEQMHEDIISLWDESLKPCVKLTPLCVTLTCSDINITNSSNTTTTNGNNSMVDPEEIKNCTFNMTTEIIDKKKEEYALFYKLDIVQINNGNGSKDYRLINCNVSTIKQACPKVSFEPIPIHYCAPAGFAILKCKDKNFNGTGPCKNVSTVQCTHGIKPVVSTQLLLNGSLAEEDIVIRTKNITDNGNNIIVHLNESITINCTRPNNNTRKSIHLGQGQAFYATGAIIGDIRQAHCNVSGSQWINMIKRVAGKLKGVFSKNVTFNSSAGGDLEITTHSFNCGGEFFYCNTSNLFNSSILTSNNTNENITLPCKIRQIVRMWQTVGQAMYAPPIAGSIICTSNITGLILTRDGGSNETNGTDTFRPGGGNMKDNWRSELYKYKVVKIKPLGIAPTKARRRVVGREKRAIGVLGAALLGFLGTAGSTMGAASITLTVQVRQLLSGIVQQQSNLLRAIEAQQHLLQLTVWGIKQLQARVLAVERYLRDQQLLGIWGCSGKLICTTNVPWNASWSNKSYEEIWDNMTWIQWDREIDNYTQLIYSLIEESQNQQEKNEQDLLALDKWTSLWSWFDISNWLWYIRIFIIIVGGLIGLRIVFAVLSIVNRVRQGYSPLSLQTLLPHPPEADRPGEIEEGGGEQGRTRSIRLVNGFLALAWDDLRNLCLFLYHHLRDFILTAARTVETLGHRGWEILKYLGNLLCYWGQELKNSVINLLDTTAIAVGNWTDRFIELGQRVVRAVLHIPRRTRQGLERALL"}, "B3": {"name": "HIV-1 Env, rebound clone, placebo arm (protein)", "chain": "B2 chain with E174Q, G190S, G192D, T842I, G845E"}, "B4": {"name": "HIV-1 Env, rebound clone, placebo arm (protein)", "chain": "B2 chain with G192D"}, "B5": {"name": "HIV-1 Env, rebound clone, placebo arm (protein)", "chain": "B2 chain with N191S, G192D"}, "B6": {"name": "HIV-1 Env, rebound clone, placebo arm (protein)", "chain": "B2 chain with G192D, S193N, A695T"}}, "key": {"antibody 10-1074 [1]": {"biological_target": "antibody 10-1074", "assay": "neutralization IC50; higher = virus less sensitive to the antibody", "description": "(§1)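 Pseudovirus bearing the Env chain mixed with antibody, from 50 µg/ml in fivefold dilutions, on TZM-bl reporter cells, in duplicate.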"}, "antibody 3BNC117 [2]": {"biological_target": "antibody 3BNC117", "assay": "neutralization IC50; higher = virus less sensitive to the antibody", "description": "as §1"}, "antibody 10-1074 [3]": {"biological_target": "antibody 10-1074", "assay": "neutralization IC80; higher = virus less sensitive to the antibody", "description": "as §1"}, "antibody 3BNC117 [4]": {"biological_target": "antibody 3BNC117", "assay": "neutralization IC80; higher = virus less sensitive to the antibody", "description": "as §1"}}, "note": "Positions count from the first letter of the chain named. The list shows a part of the results. Env chains of viruses from a treatment-interruption trial, translated from the printed DNA. IC50 / IC80 of two broadly neutralizing antibodies; lower = more sensitive virus; >50 µg/ml means not reached and <0.001 µg/ml is below the lowest dose. No active / inactive call.", "data": [{"binder": "B1", "values": [{"measurement": "neutralization IC50", "setting": "antibody 10-1074 [1]", "result": 0.009, "unit": "µg/mL"}, {"measurement": "neutralization IC50", "setting": "antibody 3BNC117 [2]", "result": 0.124, "unit": "µg/mL"}, {"measurement": "neutralization IC80", "setting": "antibody 10-1074 [3]", "result": 0.019, "unit": "µg/mL"}, {"measurement": "neutralization IC80", "setting": "antibody 3BNC117 [4]", "result": 0.594, "unit": "µg/mL"}]}, {"binder": "B2", "values": [{"measurement": "neutralization IC50", "setting": "antibody 10-1074 [1]", "result": 0.008, "unit": "µg/mL"}, {"measurement": "neutralization IC50", "setting": "antibody 3BNC117 [2]", "result": 0.154, "unit": "µg/mL"}, {"measurement": "neutralization IC80", "setting": "antibody 10-1074 [3]", "result": 0.024, "unit": "µg/mL"}, {"measurement": "neutralization IC80", "setting": "antibody 3BNC117 [4]", "result": 0.419, "unit": "µg/mL"}]}, {"binder": "B3", "values": [{"measurement": "neutralization IC50", "setting": "antibody 10-1074 [1]", "result": 0.013, "unit": "µg/mL"}, {"measurement": "neutralization IC50", "setting": "antibody 3BNC117 [2]", "result": 0.289, "unit": "µg/mL"}, {"measurement": "neutralization IC80", "setting": "antibody 10-1074 [3]", "result": 0.026, "unit": "µg/mL"}, {"measurement": "neutralization IC80", "setting": "antibody 3BNC117 [4]", "result": 0.88, "unit": "µg/mL"}]}, {"binder": "B4", "values": [{"measurement": "neutralization IC50", "setting": "antibody 10-1074 [1]", "result": 0.004, "unit": "µg/mL"}, {"measurement": "neutralization IC50", "setting": "antibody 3BNC117 [2]", "result": 0.19, "unit": "µg/mL"}, {"measurement": "neutralization IC80", "setting": "antibody 10-1074 [3]", "result": 0.023, "unit": "µg/mL"}, {"measurement": "neutralization IC80", "setting": "antibody 3BNC117 [4]", "result": 0.87, "unit": "µg/mL"}]}, {"binder": "B5", "values": [{"measurement": "neutralization IC50", "setting": "antibody 10-1074 [1]", "result": 0.005, "unit": "µg/mL"}, {"measurement": "neutralization IC50", "setting": "antibody 3BNC117 [2]", "result": 0.199, "unit": "µg/mL"}, {"measurement": "neutralization IC80", "setting": "antibody 10-1074 [3]", "result": 0.019, "unit": "µg/mL"}, {"measurement": "neutralization IC80", "setting": "antibody 3BNC117 [4]", "result": 1.24, "unit": "µg/mL"}]}, {"binder": "B6", "values": [{"measurement": "neutralization IC50", "setting": "antibody 10-1074 [1]", "result": 0.003, "unit": "µg/mL"}, {"measurement": "neutralization IC50", "setting": "antibody 3BNC117 [2]", "result": 0.174, "unit": "µg/mL"}, {"measurement": "neutralization IC80", "setting": "antibody 10-1074 [3]", "result": 0.02, "unit": "µg/mL"}, {"measurement": "neutralization IC80", "setting": "antibody 3BNC117 [4]", "result": 0.783, "unit": "µg/mL"}]}]}
